Laboratory results as given in ChEMBL document CHEMBL5729349 (2022).
pIC50: −log10 of the molar value.

test: Inhibition of Authentic Filovirus Infections in Cell Culture Assays: The authentic filoviruses Ebola virus/H. sapiens-tc/COD/1995/Kikwit-9510621 (EBOV/Kik-9510621; ‘EBOV-Zaire 1995’) (Jahrling et al., J. Infect. Dis., 179 Suppl 1:S224-234 (1999)), Sudan virus/H. sapiens-gp-tc/SDN/1976/Boniface-USAMRIID 111808 (SUDV/Bon-USAMRIID 111808; ‘SUDV-Boniface 1976’) (Anonymous, Ebola haemorrhagic fever in

`CN1CCN(c2ccc3[nH]c(=O)n(C(c4ccccc4)c4ccccc4)c3c2)CC1` and `CN1CCN(c2ccc3ncn(C(c4ccccc4)c4ccccc4)c3c2)CC1` cannot be ordered by pIC50: under 4.70 for the first, under 4.70 for the second.

Going from `CN1CCN(c2ccc(C(F)(F)F)c(NC(c3ccccc3)c3ccccc3)c2)CC1` to `CN1CCN(c2cc(NC(c3ccccc3)c3ccccc3)cc(C(F)(F)F)c2)CC1`, the pIC50 rises from 5.60 to 6.05 (0.45 log units).

Compared with `CN1CCN(c2cccc(NC(c3ccccc3)c3ccccc3)c2)CC1`, `CN1CCN(c2cc(NC(c3ccccc3)c3ccccc3)cc(OC(F)(F)F)c2)CC1` is 0.29 log units lower in pIC50: 5.80 for the first, 5.51 for the second.

First: CN1CCN(c2ccc([N+](=O)[O-])c(NC(c3ccccc3)c3ccc(Cl)cc3)c2)CC1 (stereo not drawn)
Second: Cc1ccccc1C(Nc1cc(N2CCN(C)CC2)ccc1[N+](=O)[O-])c1ccccc1 (stereo not drawn)
The pIC50 of the first is lower: under 4.70 for the first, 6.11 for the second. The second is the more potent here.

`C/C=C/CN1CCN(c2ccc([N+](=O)[O-])c(NC(c3ccccc3)c3ccccc3)c2)CC1` and `CCN1CCN(c2ccc([N+](=O)[O-])c(NC(c3ccccc3)c3ccccc3)c2)CC1` are within 0.2 log units of each other in pIC50: 5.77 for the first, 5.96 for the second.

Going from `CCCCN1CCN(c2ccc([N+](=O)[O-])c(NC(c3ccccc3)c3ccccc3)c2)CC1` to `O=[N+]([O-])c1ccc(N2CCN(CC3CC3)CC2)cc1NC(c1ccccc1)c1ccccc1`, the pIC50 rises from 5.55 to over 6.22.

Going from `O=[N+]([O-])c1ccc(N2CCN(Cc3ccoc3)CC2)cc1NC(c1ccccc1)c1ccccc1` to `O=[N+]([O-])c1ccc(N2CCN(Cc3ccco3)CC2)cc1NC(c1ccccc1)c1ccccc1`, the pIC50 rises from under 4.70 to 5.92. The second is the more potent here.

First: CN1CCN(c2ccc([N+](=O)[O-])c(NCc3ccccc3)c2)CC1
Second: COc1ccccc1C(Nc1cc(N2CCN(C)CC2)ccc1[N+](=O)[O-])c1ccccc1 (stereo not drawn)
The pIC50 of the first is 0.70 log units lower: 4.82 for the first, 5.52 for the second. The second is the more potent here.

First: CC(=O)N1CCN(c2ccc([N+](=O)[O-])c(NC(c3ccccc3)c3ccccc3)c2)CC1
Second: O=[N+]([O-])c1ccc(N2CCN(C3CCC3)CC2)cc1NC(c1ccccc1)c1ccccc1
The pIC50 of the first is 0.44 log units lower: 5.70 for the first, 6.14 for the second.

Compared with `O=[N+]([O-])c1ccc(N2CCN(Cc3ccccc3)CC2)cc1NC(c1ccccc1)c1ccccc1`, `O=[N+]([O-])c1ccc(N2CCN(Cc3ccncc3)CC2)cc1NC(c1ccccc1)c1ccccc1` is 0.42 log units higher in pIC50: 5.35 for the first, 5.77 for the second. The second is the more potent here.

First: [N-]=[N+]=Nc1ccc(CN2CCN(c3ccc([N+](=O)[O-])c(NC(c4ccccc4)c4ccccc4)c3)CC2)cc1
Second: O=[N+]([O-])c1ccc(N2CCN(Cc3ccccn3)CC2)cc1NC(c1ccccc1)c1ccccc1
The pIC50 of the first is 0.50 log units higher: 6.22 for the first, 5.72 for the second.

First: CN1CCC(N2CCN(c3ccc([N+](=O)[O-])c(NC(c4ccccc4)c4ccccc4)c3)CC2)CC1
Second: O=[N+]([O-])c1ccc(N2CCN(C3CCc4ccccc4C3)CC2)cc1NC(c1ccccc1)c1ccccc1 (stereo not drawn)
The pIC50 of the first is lower: under 4.70 for the first, 5.85 for the second. The second is the more potent here.

Going from `c1ccc(C(c2ccccc2)n2cnc3ccc(N4CCN5CCCCC5C4)cc32)cc1` (stereo not drawn) to `O=[N+]([O-])c1ccc(N2CCN(C3Cc4ccccc4C3)CC2)cc1NC(c1ccccc1)c1ccccc1`, the pIC50 falls from 5.74 to 5.10 (0.64 log units).

First: CN1CCC(N(C)c2ccc([N+](=O)[O-])c(NC(c3ccccc3)c3ccccc3)c2)CC1
Second: CN1CCN(c2ccc3ncn(C(C)(C)c4ccccc4)c3c2)CC1
The pIC50 of the first is 1.29 log units lower: 4.99 for the first, 6.28 for the second.
